These results are taken from PMC11411213 (Journal of Molecular Cell Biology, 2024).

The assay concerns SARS-CoV-2 Wuhan variant. Type of assay: cell-based.

For the compound `COc1cc(Nc2ncc(F)c(Nc3ccc4c(n3)NC(=O)C(C)(C)O4)n2)cc(OC)c1OC` [Tamatinib], the “SI (selectivity index)” value is recorded as 55.49.
